According to paper PMC8765781, “A platform of assays for the discovery of anti-Zika small-molecules with activity in a 3D-bioprinted outer-blood-retina model” (PLoS ONE, 2022):

How the values were obtained:
[1] = tested on: caspase-3 activity induced by ZIKV in Vero cells; test: Caspase-Glo 3/7 assay in ZIKV-infected Vero cells; assay type: cell-based; settings: read-out: Caspase 3 (ZIKV Antiviral Assays), IC50, 48 hr, unit inferred
[2] = tested on: wild-type ZIKV (Ugandan MR766 strain) in Vero cells; test: ZIKV cytopathic effect (CPE) inhibition qHTS assay, CellTiter-Glo readout; assay type: cell-based, Zika virus
[3] = tested on: ZIKV-mCherry (Cambodian strain FSS13025); test: ZIKV-mCherry reporter imaging assay in Vero cells; assay type: cell-based, Zika virus
[4] = tested on: ZIKV-RLuc (Cambodian strain FSS13025); test: Recombinant ZIKV-RLuc (Renilla luciferase reporter) assay in Vero cells; assay type: cell-based, Zika virus
WNV (Kern515/WN02) = test: NIAID flavivirus panel, neutral red CPE assay in Vero cells: WNV
YFV (YFV 17D) = test: NIAID flavivirus panel, neutral red CPE assay in Vero cells: YFV
[5] = tested on: DENV (Dengue virus type 2, strain New Guinea C); test: NIAID flavivirus panel, neutral red CPE assay in Vero cells: DENV
ZIKV = test: NIAID flavivirus panel, neutral red CPE assay in Vero cells: ZIKV

CC1=CC2OC3CC(O)[C@](C)([C@@]2(C)C(O)C1=O)[C@]31CO1 (stereo partly drawn)
IC50 [1]: 2340 nM | IC50 [2]: 2310 nM | CC-v2 (curve class classification of the dose response curve) ([2]; curve class v2 (Inglese et al. 2006)): -1.2 | Max Resp ([2]; difference between neutral response and compound response for highest compound concentration): -59.481 | Efficacy ([2]; difference between neutral response and maximum compound response): -64.662 | AC50 ([2]; from Hill fit of the response curve, 50% of maximum activity response, 194 cherry-picked compounds, protocol name not given): 2310 nM | Log AC50 (M) ([2]; potency in log units (Molar) from Hill fit of the response curve, 194 cherry-picked compounds, protocol name not given): -5.6362 M | CC-v2 (curve class of the dose response curve) [3]: -1.2 | Efficacy (difference between neutral response and maximum compound response) [3]: -58.388 | Max Resp (difference between neutral response and response at highest compound concentration) [3]: -99.093 | AC50 ([3]; Hill fit): 1680 nM | Log AC50 (M) ([3]; log units of molar potency from Hill fit (negative values)): -5.7741 M | IC50 [4]: 2610 nM

CC1=C[C@H]2O[C@@H]3[C@H](O)C[C@](C)([C@@]2(CO)[C@H](O)C1=O)[C@]31CO1 [NCGC00180572-02, vomitoxin]
Selectivity Index WHV (CC50/EC50) (WNV (Kern515/WN02); Table 1, Vero cells): 3 | SI value WHV (CC50/EC50) (WNV (Kern515/WN02); Table S1, Vero cells): 2.7 | Selectivity Index YFV (CC50/EC50) (YFV (YFV 17D); Table 1, Vero cells): 3 | SI value YFV (CC50/EC50) (YFV (YFV 17D); Table S1, Vero cells): 3 | Selectivity Index DENV (CC50/EC50) ([5]; Table 1, Vero cells): 9 | SI value DENV (CC50/EC50) ([5]; Table S1, Vero cells): 9 | Selectivity Index ZIKV (CC50/EC50) (ZIKV; Table 1, Vero cells): 34 | SI value ZIKV (CC50/EC50) (ZIKV; Table S1, Vero cells): 34
